Measured values from several laboratories, pooled; numbers as filed in NIAID ChemDB.

Shared fields: whole-cell or culture tests

Blank or dashed fields: not listed here. ECn: concentration that inhibits the pathogen or its effect by n%. Percent inhibition refers to the dose given; in toxicity tests it is the harm to the cells. Conditions beyond the fields shown may differ between rows.

compound | species | strain or isolate | cells | method | endpoint | dose | result
OC[C@H]1O[C@@H](n2cnc3c(NC4CC4)ncnc32)C[C@@H]1O | Bovine herpesvirus 1 | IRB-LA | MDBK | cytopathic effect | EC50 |  | 50 µM
C[C@@H]1CC[C@H]2[C@@H](C)C(=O)O[C@@H]3OC4(C)CC[C@@H]1[C@]32OO4 | Bovine viral diarrhea virus | C24V | EBTR | cytopathic effect | inhibition | 10 µM | 80%
OC[C@H]1O[C@@H](n2cnc3c(NC4CC4)nc(Cl)nc32)[C@H](O)[C@@H]1O | Bovine herpesvirus 1 | IRB-LA | MDBK | cytopathic effect | EC50 |  | >50 µM
CCCCCCCCCN1C[C@H](O)[C@@H](O)[C@H](O)[C@H]1CO | Bovine viral diarrhea virus |  | MDBK | cytopathic effect | EC50 |  | 60 µM
O=c1c(O)c(-c2ccccc2)oc2cc(O)cc(O)c12 | Bovine herpesvirus 1 |  | VERO |  | EC50 |  | >15 µg/mL
O[C@H]1[C@H](O)[C@@H](O)CN2CC[C@H](O)[C@H]12 | Bovine viral diarrhea virus |  | MDBK | plaque count | EC50 |  | 110.2 µM
CCCOCCCCCCN1C[C@H](O)[C@@H](O)[C@H](O)[C@H]1CO | Bovine viral diarrhea virus |  | MDBK | plaque count | EC50 |  | 30 µM
OC[C@H]1O[C@@H](n2cnc3c(NC4CCCCCC4)ncnc32)[C@H](O)[C@@H]1O | Bovine herpesvirus 1 | IRB-LA | MDBK | cytopathic effect | EC50 |  | >50 µM
NC(=O)c1ncn([C@@H]2O[C@H](CO)[C@@H](O)[C@H]2O)c1O | Bovine viral diarrhea virus |  | MDBK | cytopathic effect | EC50 |  | 5.3 µM
OC[C@@H]1[C@@H](O)[C@H](O)[C@@H](O)CN1CCCC1CCCCC1 | Bovine viral diarrhea virus |  | MDBK | plaque count | EC50 |  | 3 µM
Nc1ccn([C@@H]2O[C@H](CO)[C@@H](O)[C@H]2F)c(=O)n1 | Bovine viral diarrhea virus |  | Huh7 | replicon | EC90 |  | >100 µM
CCCC(=O)O[C@H]1CN2CC[C@H](O)[C@@H]2[C@@H](O)[C@@H]1O | Bovine viral diarrhea virus |  | MDBK | plaque count | EC50 |  | 15.95 µM
OC[C@@H]1[C@@H](O)[C@H](O)[C@@H](O)CN1CCCCc1ccccc1 | Bovine viral diarrhea virus |  | MDBK | plaque count | EC50 |  | 40 µM
Nc1ccnc2c1ncn2[C@@H]1O[C@H](CO)C[C@H]1O | Bovine herpesvirus 1 | IRB-LA | MDBK | cytopathic effect | EC50 |  | >50 µM
CCCCN1C[C@H](O)[C@@H](O)[C@H](O)[C@H]1CO | Bovine viral diarrhea virus |  | MDBK | cytopathic effect | EC50 |  | >1000 µM
OC[C@@H]1C[C@@H](O)[C@H](n2cnc3c(NC4CCCCCC4)ccnc32)O1 | Bovine herpesvirus 1 | IRB-LA | MDBK | cytopathic effect | EC50 |  | >50 µM
CCCC(=O)O[C@H]1CN2CC[C@H](O)[C@@H]2[C@@H](O)[C@@H]1O | Bovine viral diarrhea virus |  | MDBK | cytopathic effect | EC50 |  | 52 µM
OC[C@@H]1C[C@@H](O)[C@H](n2cnc3c(NC4CCCCC4)nc(Cl)cc32)O1 | Bovine herpesvirus 1 | IRB-LA | MDBK | cytopathic effect | EC50 |  | >50 µM
CCC(C)CCC[C@@H](C)CCN1C[C@H](O)[C@@H](O)[C@H](O)[C@H]1CO | Bovine viral diarrhea virus |  | MDBK | plaque count | EC50 |  | 8 µM

For reference, 2 entries again:

OC[C@H]1O[C@@H](n2cnc3c(NC4CC4)nc(Cl)nc32)[C@H](O)[C@@H]1O ; species: Bovine herpesvirus 1 ; strain or isolate: IRB-LA ; cells: MDBK ; method: cytopathic effect ; endpoint: EC50 ; result: >50 µM
OC[C@@H]1[C@@H](O)[C@H](O)[C@@H](O)CN1CCCCc1ccccc1 ; species: Bovine viral diarrhea virus ; cells: MDBK ; method: plaque count ; endpoint: EC50 ; result: 40 µM